Measured values from several laboratories, pooled; numbers as filed in NIAID ChemDB.

Common to all: growth or infection tests; organism: Human cytomegalovirus; read-out: EC50

Lines come from different laboratories, so protocols vary.

compound | strain | cells | method | result
Nc1nc2c(ncn2COC(CO)CO)c(=O)[nH]1 | AD169 | HEL | plaque count | 1.1 µg/mL
Cc1cccc2c1OP(=O)(OC[C@H]1O[C@@H](n3cc(/C=C/Br)c(=O)[nH]c3=O)C[C@@H]1OC(=O)[C@H](N)C(C)C)OC2 | AD169 | HELF | plaque count | >128 µg/mL
C[C@H](O)C1=C[C@@H](n2cnc3c(N)ncnc32)[C@H](O)[C@@H]1O | DAVIS (20 PFU) | HEL | plaque count | 8.8 µg/mL
Nc1ccn(C[C@@H](CO)OCP(=O)(O)O)c(=O)n1 | Ganciclovir- and HPMPC-resistant | HEL | plaque count | 0.1 µg/mL
Nc1ncnc2c1ncn2[C@@H]1C=C(CO)[C@@H](O)[C@H]1O | DAVIS (20 PFU) | HEL | plaque count | 0.09 µg/mL
O=C(O)C[C@H](NCCN[C@@H](CC(=O)O)C(=O)O)C(=O)O | AD169 | HEL | plaque count | 9.1 µg/mL
Cc1cccc2c1OP(=O)(OC[C@H]1O[C@@H](n3cc(/C=C/Br)c(=O)[nH]c3=O)C[C@@H]1OC(=O)[C@@H](N)CC(C)C)OC2 | AD169 | HELF | plaque count | >128 µg/mL
COC(=O)[C@]1(O)C[C@@H]2O[C@@]1(C)n1c3ccccc3c3c4c(c5c6ccccc6n2c5c31)C(=O)NC4 | A6245 | HEF | plaque count | 0.02 µM
CCC(C)C(N)C(=O)O[C@H]1C[C@H](n2cc(/C=C/Br)c(=O)[nH]c2=O)O[C@@H]1COP1(=O)OCc2cccc(C)c2O1 | AD169 | HELF | plaque count | >128 µg/mL
C[C@@H](O)C1=C[C@@H](n2cnc3c(N)ncnc32)[C@H](O)[C@@H]1O | AD-169 (20 PFU) | HEL | plaque count | 0.053 µg/mL
O=c1c(-c2ccc(O)cc2)coc2cc(O)cc(O)c12 | AD169 | HEF | plaque count | 31.1 µM
Cc1cccc2c1OP(=O)(OC[C@H]1O[C@@H](n3cc(/C=C/Br)c(=O)[nH]c3=O)C[C@@H]1OC(=O)CN)OC2 | AD169 | HELF | plaque count | >128 µg/mL
C=C[C@H]1C[C@@H](n2cnc3c(N)ncnc32)[C@H](O)[C@@H]1O | AD-169 (20 PFU) | HEL | plaque count | 21.2 µg/mL
O=c1[nH]c(=O)n([C@H]2C[C@H](O)[C@@H](COP3(=O)OCc4ccccc4O3)O2)cc1/C=C/Br | AD169 | HELF | plaque count | >128 µg/mL
CC[C@H]1C[C@@H](n2cnc3c(N)ncnc32)[C@H](O)[C@@H]1O | AD-169 (100 PFU) | HEL | cytopathic effect | >100 µg/mL
Nc1nc2c(ncn2COC(CO)CO)c(=O)[nH]1 | A6245 | HEF | plaque count | 1.8 µM

Again, the opening 2 rows:

compound	strain	cells	method	result
Nc1nc2c(ncn2COC(CO)CO)c(=O)[nH]1	AD169	HEL	plaque count	1.1 µg/mL
Cc1cccc2c1OP(=O)(OC[C@H]1O[C@@H](n3cc(/C=C/Br)c(=O)[nH]c3=O)C[C@@H]1OC(=O)[C@H](N)C(C)C)OC2	AD169	HELF	plaque count	>128 µg/mL

ECn is the concentration giving n% inhibition of infection, replication or growth.